# Results: patent US20160024159A1, “Potent and selective inhibitors of Nav1.7” (published 2016)
# Where two headings read alike, the source gives them in different places.
# Experiments:
# Test in all cases: cell-based or functional assay
# [1] = target: T1, human Nav1.7 voltage-gated sodium channel (human), Q15858
# [2] = target: mouse Nav1.4 voltage-gated sodium channel (mouse), Q9ER60
# [3] = target: mouse Nav1.7 voltage-gated sodium channel (mouse), Q62205
# [4] = target: rat Nav1.7 voltage-gated sodium channel (rat), O08562
# [5] = target: T1, human Nav1.7 voltage-gated sodium …; remark: listed apart in the source
# [6] = target: human Nav1.6 voltage-gated sodium channel (human), Q9UQD0
binder,measurement,setting,value
"GYCQKWLWTCDSERACCEGLRCKLWCRKEI (modifications not checked) [Pra-[Nle6;Glu12,28]JzTx-V(1-29)]",PX hNav1.7 Tonic IC50,[1],1.73 nM
same,PX mNav1.4 Tonic IC50,[2],548 nM
same,mNav1.4/mNav1.7,[2],34
same,PX mNav1.7 Tonic IC50,[3],16.2 nM
same,mNav1.7/hNav1.7,[3],9.37
same,PX rNav1.7 Tonic IC50,[4],2.66 nM
same,rNav1.7/hNav1.7,[4],1.54
same,PX hNav1.7 Tonic IC50,[5],1.73 nM
same,PX hNav1.6 Tonic IC50,[6],877 nM
